{"source": "patent US5294603A", "about": "“Pharmaceutical compositions containing didemnins” (The Board of Trustees of The University of Illinois, priority 1992, dated 1994)", "system": "Visna virus (VIV)", "assay": "Anti-VIV activity, % protection (Tables VI, 9)", "assay_type": "cell-based", "details": "Table VI, dose 0.3 (unit not given)", "data": [{"substance": "-Ketobutyryl-Pro Didemnin A", "values": [{"measurement": "% Protection", "value": "I"}]}]}
